# In patent US12605351B2, “Method for producing a composition comprising a 3-O-p-coumaroyl ester of tormentic acid from a plant cell culture, applications thereof as antiparasitic agent for the treatment of trypanosomiasis” (LUXEMBOURG INSTITUTE OF SCIENCE AND TECHNOLOGY, priority 2019, dated 2026):
# Test system: Trypanosoma brucei brucei bloodstream forms (strain 427)
# Assay: In vitro antitrypanosomal activity on Tbb BSF
# Type: cell-based
# Conditions: for SI (IC50WI38/IC50Tbb): Table 4; for SI (Selectivity Index): cytotoxicity in WI38 compared to Tbb
# Protocol: Antiparasitic activities were evaluated in vitro on Trypanosoma brucei brucei bloodstream forms (strain 427) (Tbb BSF). Tbb BSF were cultured in vitro at 37° C. with 5% CO2 in HMI9 medium containing 10% heat-inactivated fetal bovine serum, […] ([…]) and L-cysteine ([…]).
# In vitro tests were performed as previously described by Hoet S. et al. (Planta Med., 2004, 70, 407-413, doi:10.1055/s-2004-818967). Suramine (a commercial anti-trypanosomal drug) and camptothecin were used as positive controls. Stock solutions of compounds to be tested were prepared at a concentration of 10 mg/mL in DMSO. The solutions were further diluted in medium (described in 1.1) to give 0.1 mg/mL stock solutions. Extracts and compounds were tested in eight serial three-fold dilutions (final concentration range: 50-0.02 mg/L) in 96-well microliter plates. All tests were performed at least in duplicate.
Molecule,SI (IC50WI38/IC50Tbb),SI (Selectivity Index)
"C[C@H]1[C@H](C)CC[C@]2(C(=O)O)CC[C@]3(C)C(=CC[C@@H]4[C@@]5(C)CC[C@H](OC(=O)CCc6ccccc6)C(C)(C)C5CC[C@]43C)[C@H]12 (stereo partly drawn) [Derivative (II-1), 3-O-hydrocinnamic ursolic acid]",64.0,–
"C[C@H]1[C@H](C)CC[C@]2(C(=O)O)CC[C@]3(C)C(=CC[C@@H]4[C@@]5(C)CC[C@H](OC(=O)CCc6ccc(F)cc6)C(C)(C)C5CC[C@]43C)[C@H]12 (stereo partly drawn) [Derivative (II-3), 3-O-parafluorophenylpropionic ursolic acid]",>67.3,–
"C[C@H]1[C@H](C)CC[C@]2(C(=O)O)CC[C@]3(C)C(=CC[C@@H]4[C@@]5(C)CC[C@H](OC(=O)CCc6cccc(F)c6)C(C)(C)C5CC[C@]43C)[C@H]12 (stereo partly drawn) [Derivative (II-4), 3-O-metafluorophenylpropionic ursolic acid]",>61.5,–
"C[C@H]1[C@H](C)CC[C@]2(C(=O)O)CC[C@]3(C)C(=CC[C@@H]4[C@@]5(C)CC[C@H](OC(=O)CCc6ccccc6F)C(C)(C)C5CC[C@]43C)[C@H]12 (stereo partly drawn) [Derivative (II-5), 3-O-orthofluorophenylpropionic ursolic acid]",>79.5,–
"CC1(C)CC[C@]2(C(=O)O)CC[C@]3(C)C(=CC[C@@H]4[C@@]5(C)CC[C@H](OC(=O)CCc6ccccc6)C(C)(C)C5CC[C@]43C)[C@@H]2C1 (stereo partly drawn) [Derivative (II-6), 3-O-hydrocinnamic oleanolic acid]",9.1,–
"CC1(C)CC[C@]2(C(=O)O)CC[C@]3(C)C(=CC[C@@H]4[C@@]5(C)CC[C@H](OC(=O)CCc6ccc(F)cc6)C(C)(C)C5CC[C@]43C)[C@@H]2C1 (stereo partly drawn) [Derivative (II-8), 3-O-parafluorophenylpropionic oleanolic acid]",5.7,–
"CC1(C)CC[C@]2(C(=O)O)CC[C@]3(C)C(=CC[C@@H]4[C@@]5(C)CC[C@H](OC(=O)CCc6cccc(F)c6)C(C)(C)C5CC[C@]43C)[C@@H]2C1 (stereo partly drawn) [Derivative (II-9), 3-O-metafluorophenylpropionic oleanolic acid]",12.1,–
C[C@@H]1CC[C@]2(C(=O)O)CC[C@]3(C)C(=CC[C@@H]4[C@@]5(C)C[C@@H](O)[C@H](O)C(C)(C)[C@@H]5CC[C@]43C)[C@@H]2[C@]1(C)O [Tormentic acid],–,3.5
Annurcoic acid [reference compound],–,2.6
